Experimental findings from US8071797B2 (priority 2008, dated 2011) are described below.

The structures given here were assigned with low confidence; some may be wrong.

This assay addresses HCV polymerase (NS5B570n-Con1) (Hepatitis C virus genotype 1b, UniProt Q9WMX2). The assay can be described thus: HCV NS5B RNA polymerase activity assay. The settings on record: read-out: IC50 NS5B polymerase assay; Table I. The assay is classed as biochemical, HCV Con1 strain. As for the experimental part:
The enzymatic activity of HCV polymerase (NS5B570n-Con1) was measured as the incorporation of radiolabeled nucleotide monophosphates into acid insoluble RNA products. Unincorporated radiolabeled substrate was removed by filtration and scintillant was added to the washed and dried filter plate containing radiolabeled RNA product. The amount of RNA product generated by NS5B570-Con1 at the end of the reaction was directly proportional to the amount of light emitted by the scintillant.
The N-terminal 6-histidine tagged HCV polymerase, derived from HCV Con1 strain, genotype 1b (NS5B570n-Con1) contains a 21 amino acid deletion at the C-terminus relative to the full-length HCV polymerase and was purified from E. coli strain BL21 (DE) pLysS. The construct, containing the coding sequence of HCV NS5B Con1 (GenBank accession number AJ242654) was inserted into the plasmid construct pETI 7b, downstream of a T7 promoter expression cassette and transformed into E. coli. […]
The amount of light emitted from the scintillant was converted to counts per minute (CPM) on a Topcount® plate reader (Perkin-Elmer, Energy Range: Low, Efficiency Mode Normal, Count Time: 1 min, Background Subtract: none, Cross talk reduction: Off).
Data was analyzed in Excel® (Microsoft®) and ActivityBase® (idbsg). […] All data was expressed as a percentage of the positive control. […]

As to `CNC(=O)c1c(-c2ccc(Oc3ccc(F)cc3)cc2)oc2cc(N(CCCC(=O)OC)S(C)(=O)=O)c(C3CC3)cc12`, the half-maximal inhibitory concentration (IC50) came out at 8 nM.

As usually defined, the IC50 is the concentration needed to halve the response being measured.
